Results of unrelated studies side by side (data: NIAID ChemDB).

All rows: tests in culture; organism: Mycobacterium avium; measure: MIC

An empty or dashed field is not shown. Neighbouring rows are from separate reports.

SMILES	strain	setting	value
Cc1ccc2oc(=O)n(-c3ccc(F)cc3)c(=S)c2c1	MY330/88	14 d	4 µM
Cn1cnnc1SCc1ccccc1	MY330/88		>1000 µM
CCCOc1cccc(NC(=O)OCCN2CCCCC2)c1	MY330/88		500 µM
c1cc(CSc2ncn[nH]2)cc(-c2nn[nH]n2)c1	MY330/88		>500 µM
COc1ccc2oc(=S)n(-c3ccc(Cl)c(Cl)c3)c(=S)c2c1	MY330/88	14 d	62.5 µM
CCCOc1ccccc1NC(=O)OCCN1CCCCCC1	MY330/88		125 µM
COc1ccc2c(=O)n(-c3cccc(F)c3)c(=O)oc2c1	CNCTC MY330/88		32 µM
Clc1ccc2c(c1)nc1cc(Nc3ccccc3)c(=NC3CCCCC3)cc-1n2-c1ccccc1	11882		1.3 µg/mL
Cc1ccc2oc(=O)n(-c3ccc(Cl)cc3)c(=O)c2c1	CNCTC MY330/88		16 µM
COc1ccc(NC(=O)OCCN2CCOCC2)cc1	MY330/88		1000 µM
Cc1ccc2oc(=S)n(-c3ccc(Cl)c(Cl)c3)c(=S)c2c1	MY330/88	21 d	16 µM
N#Cc1ccc(-n2c(=O)oc3ccccc3c2=O)cc1	CNCTC MY330/88		32 µM
Fc1ccc2oc(=S)n(-c3ccccc3)c(=S)c2c1	MY330/88	14 d	8 µM
CCCCOc1cccc(NC(=O)OCC[NH+]2CCCC2)c1	MY330/88		125 µM
O=c1oc2ccc(Br)cc2c(=O)n1-c1ccc(Cl)cc1	CNCTC MY330/88		16 µM
O=c1oc2ccc(F)cc2c(=S)n1-c1ccc(Br)cc1	MY330/88	21 d	8 µM
COc1ccc(CSc2ncn[nH]2)cc1	MY330/88		500 µM
Cc1ccc2c(=O)n(-c3cccc(Cl)c3)c(=O)oc2c1	CNCTC MY330/88		16 µM
NC(=S)c1cccc(CSc2ncn[nH]2)c1	MY330/88		1000 µM
Cc1ccc(-n2c(=S)oc3ccc(F)cc3c2=S)cc1	MY330/88	14 d	16 µM
O=c1oc2ccc(Br)cc2c(=O)n1-c1ccc(Br)cc1	CNCTC MY330/88		16 µM
COc1ccc2oc(=O)n(-c3ccc(C(F)(F)F)cc3)c(=S)c2c1	MY330/88	21 d	125 µM
O=c1oc2cc(Cl)ccc2c(=O)n1-c1cccc([N+](=O)[O-])c1	CNCTC MY330/88		16 µM

2 of the rows above, restated:

SMILES	strain	setting	value
NC(=S)c1cccc(CSc2ncn[nH]2)c1	MY330/88		1000 µM
O=c1oc2ccc(Br)cc2c(=O)n1-c1ccc(Br)cc1	CNCTC MY330/88		16 µM